Results of unrelated studies side by side (data: NIAID ChemDB).

All rows: toxicity to cultured cells; cell line: MT-2; endpoint: CC50

Neighbouring rows are from separate reports.

structure	result
CC(C)(C)NC(=O)[C@@H]1C[C@@H]2CCCC[C@@H]2N1C(=O)[C@@H](O)[C@H](Cc1ccccc1)NC(=O)[C@H](CC(N)=O)NC(=O)COc1cccc2ccccc12	>10 µM
Nc1nc(NC2CC2)c2ncn([C@H]3C=C[C@@H](CO)O3)c2n1	>20 µM
Nc1ncnc2c1ncn2CCOCP(=O)(O)O	160 µM
Nc1ccn([C@H]2CC[C@@H](CO)O2)c(=O)n1	>32 µM
Cc1cn([C@H]2C[C@H](N=[N+]=[N-])[C@@H](CO)O2)c(=O)[nH]c1=O	109.4 µM
Nc1ccn([C@@H]2CC[C@H](CO)O2)c(=O)n1	>100 µM
Nc1nc(N2CCCC2)c2ncn([C@H]3C=C[C@@H](CO)O3)c2n1	>20 µM
Nc1nc2c(ncn2[C@H]2CO[C@@H](CO)O2)c(=O)[nH]1	>500 µM
Cc1cn([C@H]2C[C@H](N=[N+]=[N-])[C@@H](CO)O2)c(=O)[nH]c1=O	>200 µM
Cc1cn([C@H]2C=C[C@@H](CO)O2)c(=O)[nH]c1=O	286 µM
COC(=O)N[C@H](C(=O)N[C@@H](Cc1ccccc1)[C@@H](O)CN(Cc1ccc(-c2ccccn2)cc1)NC(=O)[C@@H](NC(=O)OC)C(C)(C)C)C(C)(C)C	28 µM
COC(=O)[C@H](C)NP(=O)(OC[C@H]1C/C1=C/n1cnc2c(N)nc(N)nc21)Oc1ccccc1	21 µM
Cc1c(O)cccc1C(=O)N[C@@H](CSc1ccccc1)[C@H](O)CN1C[C@H]2CCCC[C@H]2C[C@H]1C(=O)NC(C)(C)CO	92.6 µM
Cc1cn([C@H]2C[C@H](F)[C@@H](CP(=O)(O)O)O2)c(=S)[nH]c1=O	>200 µM
Nc1nc(N)c2ncn([C@H]3CO[C@@H](CO)O3)c2n1	>>100 µM
CCCN(CCC)C(=O)OCOP(=O)(CO[C@H](C)Cn1cnc2c(N)ncnc21)OCOC(=O)N(CCC)CCC	10 µM
C[C@H](Cn1cnc2c(N)nc(N)nc21)OCP(=O)(O)O	350 µM
COC(=O)C(=O)OC1(C(=O)O)C[C@@H](OC(=O)/C=C/c2ccc(O)c(O)c2)C(O)[C@H](OC(=O)/C=C/c2ccc(O)c(O)c2)C1	>350 µg/mL
CCCc1cc(=O)oc2c3c(c4c(c12)OC(C)(C)C=C4)O[C@@H](C)[C@H](C)[C@@H]3O	10–20 µM
C[C@H](Cn1cnc2c(N)ncnc21)OCP(=O)(O)O	>500 µM
Nc1ncnc2c1ncn2[C@H]1CC[C@@H](CO)O1	>0.2 µM
Cc1cn([C@H]2C=C[C@@H](CO)O2)c(=O)[nH]c1=O	>100 µM
Nc1nc2c(ncn2[C@H]2C=C[C@@H](CO)C2)c(=O)[nH]1	41.8 µg/mL
CC(C)(C)C(=O)OCOP(=O)(COCCn1cnc2c(N)ncnc21)OCOC(=O)C(C)(C)C	2 µM
CC(C)Nc1cccnc1N1CCN(C(=O)c2cc3ccccc3[nH]2)CC1	28 µM
COc1cc([C@@H]2c3cc4c(cc3[C@@H](O[C@@H]3O[C@@H]5CO[C@@H](C)O[C@H]5[C@H](O)[C@H]3O)[C@H]3COC(=O)[C@H]23)OCO4)cc(OC)c1O	0.16 µg/mL
CCO[C@H]1C[C@H](n2cc(C)c(=O)[nH]c2=O)O[C@@H]1COP(=O)(OCC(Cl)(Cl)Cl)OCC(Cl)(Cl)Cl	200 µM
COc1cc([C@@H]2c3cc4c(cc3[C@H](O)[C@H]3COC(=O)[C@H]23)OCO4)cc(OC)c1OC	0.0022 µg/mL
CC(C)(C)c1ccc(C(Cn2cccc(C(F)(F)F)c2=O)NC2Cc3ccccc3C2)cc1	>15 µM
Nc1ncnc2c1ncn2[C@H]1CC[C@@H](CO)C1	>62.2 µg/mL
Cc1cn([C@H]2C[C@H](N=[N+]=[N-])[C@@H](CO)O2)c(=O)[nH]c1=O	>100 µM
CC(C)CN(C[C@@H](O)[C@H](Cc1ccccc1)NC(=O)O[C@H]1CCOC1)S(=O)(=O)c1ccc(N)cc1	>100 µM
Nc1nc(=O)n([C@@H]2CC[C@H](CO)O2)cc1F	>100 µM
O=C(c1ccccc1)N1CCC(CC2C(=O)N(c3ccccc3)c3ccccc32)CC1	35 µM
CC(C)[C@H](NC(=O)OCc1ccccc1)C(=O)N[C@@H](Cc1ccccc1)[C@@H](O)[C@H](O)[C@H](Cc1ccccc1)NC(=O)[C@@H](NC(=O)OCc1ccccc1)C(C)C	65 µM
O=C(O)c1cc(O)cc(O)c1N=Nc1ccc(/C=C/c2ccc(N=Nc3c(O)cc(O)cc3C(=O)O)cc2S(=O)(=O)O)c(S(=O)(=O)O)c1	110 µg/mL
Cc1cccc(C)c1OCC(=O)N[C@@H](Cc1ccccc1)[C@@H](O)C[C@H](Cc1ccccc1)NC(=O)[C@H](C(C)C)N1CCCNC1=O	26.7 µM
Cc1cn([C@H]2C[C@H](N=[N+]=[N-])[C@@H](CO)O2)c(=O)[nH]c1=O	>22.5 µM
CC(C)CN(C[C@@H](O)[C@H](Cc1ccccc1)NC(=O)O[C@H]1CO[C@H]2OCC(F)(F)[C@H]21)S(=O)(=O)c1ccc(N)cc1	37 µM
CCc1c(Sc2ccccn2)n(COCc2ccccc2)c(=O)[nH]c1=O	10 ± 1 µM
COC(=O)[C@H](C)NP(=O)(OC[C@H]1C/C1=C/n1cnc2c(=O)[nH]c(N)nc21)Oc1ccccc1	76 µM
C[C@H](Cn1cnc2c(N)ncnc21)OCP(=O)(O)O	>1000 µM
CCCc1cc(=O)oc2c3c(c4c(c12)OC(C)(C)C=C4)O[C@H](C)[C@@H](C)[C@@H]3O	10–20 µM
O=C1N(c2ccccc2)c2ccccc2C1(CCCc1cccnc1)CCCc1cccnc1	35 µM
COc1cc(C[C@H]2C(=O)OC[C@@H]2Cc2ccc(OC)c(OC)c2)ccc1O	0.63 µg/mL
COC(=O)N[C@H](C(=O)N[C@@H](Cc1ccccc1)[C@@H](O)CN(Cc1ccc(-c2ccccn2)cc1)NC(=O)[C@@H](NC(=O)OC)C(C)(C)C)C(C)(C)C	28.6 µM
Cc1cn([C@H]2C[C@H](N=[N+]=[N-])[C@@H](CO)O2)c(=O)[nH]c1=O	20 µM
CCc1c([Se]c2ccccn2)n(COCc2ccccc2)c(=O)[nH]c1=O	24 ± 0.1 µM
Nc1nc(Cl)c2ncn([C@H]3C=C[C@@H](CO)C3)c2n1	7 µg/mL
CN1CC=C(CC2(Cc3ccccc3)C(=O)N(c3ccccc3)c3ccccc32)CC1	61 µM
Nc1nc(NC2CC2)c2ncn([C@H]3C=C[C@@H](CO)C3)c2n1	52 µM
O=c1cc(-c2ccc(O)c(O)c2)oc2cc(O[C@@H]3O[C@H](CO)[C@@H](O)[C@H](O)[C@H]3OS(=O)(=O)O)cc(O)c12	>800 µM
Nc1ccn([C@H]2CC[C@@H](CO)O2)c(=O)n1	32 µg/mL
COC(=O)N[C@H](C(=O)N[C@@H](Cc1ccccc1)[C@@H](O)CN(Cc1ccc(-c2ccccn2)cc1)NC(=O)[C@@H](NC(=O)OC)C(C)(C)C)C(C)(C)C	32.4 µM
CC(C)OC(=O)OCOP(=O)(CO[C@H](C)Cn1cnc2c(N)ncnc21)OCOC(=O)OC(C)C	22 µM
CC(C)OC(=O)OCOP(=O)(CO[C@H](C)Cn1cnc2c(N)ncnc21)OCOC(=O)OC(C)C	22 µM
C=CCN1C(=O)N(CC=C)[C@H](Cc2ccccc2)[C@H](O)[C@@H](O)[C@H]1Cc1ccccc1	93.1 µM
Nc1nc(NC2CC2)c2ncn([C@H]3C=C[C@@H](CO)O3)c2n1	87 µM
CC(C)[C@H](NC(=O)OC(C)(C)C)C(=O)N[C@@H](Cc1ccccc1)[C@H]1OP(c2ccccc2)(c2ccccc2)(c2ccccc2)O[C@@H]1[C@H](Cc1ccccc1)NC(=O)[C@@H](NC(=O)OC(C)(C)C)C(C)C	5 µg/mL
CCCc1cc(=O)oc2c3c(c4c(c12)OC(C)(C)C=C4)O[C@H](C)[C@@H](C)[C@@H]3O	7.7 µM
C[C@H](Cn1cnc2c(N)ncnc21)OCP(=O)(O)O	>100 µM
Nc1ncnc2c1ncn2CCOCP(=O)(O)O	225 µM
CN(C)C=Nc1ccn([C@H]2C[C@H](F)[C@@H](CO)O2)c(=O)n1	>200 µM
C[C@@H]1C[C@@H]([C@H](O)CC2CC(=O)NC(=O)C2)C(=O)[C@@H](C)C1	2.51 µM
Cc1cn([C@H]2C[C@H](N=[N+]=[N-])[C@@H](CO)O2)c(=O)[nH]c1=O	159 µg/mL
O=C(/C=C/c1ccc(O)c(O)c1)O[C@@H]1C[C@](OC(=O)/C=C/c2ccc(O)c(O)c2)(C(=O)O)C[C@@H](O)[C@H]1O	>250 µM
Nc1ncnc2c1ncn2[C@@H]1C=C[C@H](OCP(=O)(O)O)O1	>1000 µM
CCc1c([Se]c2ccccc2)n(COCc2ccccc2)c(=O)[nH]c1=O	5 ± 0.5 µM
C[C@@H](Cn1cnc2c(N)nc(N)nc21)OCP(=O)(OCOC(=O)C(C)(C)C)OCOC(=O)C(C)(C)C	9 µM
O=C(O)/C=C/c1ccc(O)c(O)c1	>250 µg/mL
Nc1ccn([C@H]2CC[C@@H](CO)O2)c(=O)n1	>10 µM
CN1CCC(CC2(CC3CCN(C)CC3)c3ccccc3-c3ccccc32)CC1	87 µM
O=C(O)C1(O)C[C@@H](O)C(O)[C@H](O)C1	>625 µg/mL
COc1cc([C@@H]2c3cc4c(cc3C[C@H]3COC(=O)[C@@H]32)OCO4)cc(OC)c1OC	0.00065 µg/mL
Cc1cn([C@H]2C[C@H](OS(C)(=O)=O)[C@@H](COP(=O)(OCC(Cl)(Cl)Cl)OCC(Cl)(Cl)Cl)O2)c(=O)[nH]c1=O	>200 µM
CCCCOC(=O)[C@H](C)NP(=O)(CO[C@@H]1C=C(F)[C@H](n2cnc3c(N)ncnc32)O1)N[C@@H](C)C(=O)OCCCC	>50 µM
O=C(/C=C/c1ccccc1)[Se]c1ccccc1	33.2 µM

For reference, 7 entries again:

structure | result
COC(=O)C(=O)OC1(C(=O)O)C[C@@H](OC(=O)/C=C/c2ccc(O)c(O)c2)C(O)[C@H](OC(=O)/C=C/c2ccc(O)c(O)c2)C1 | >350 µg/mL
COc1cc([C@@H]2c3cc4c(cc3C[C@H]3COC(=O)[C@@H]32)OCO4)cc(OC)c1OC | 0.00065 µg/mL
Cc1cn([C@H]2C[C@H](N=[N+]=[N-])[C@@H](CO)O2)c(=O)[nH]c1=O | 159 µg/mL
Nc1ncnc2c1ncn2[C@H]1CC[C@@H](CO)C1 | >62.2 µg/mL
Nc1nc(Cl)c2ncn([C@H]3C=C[C@@H](CO)C3)c2n1 | 7 µg/mL
C[C@H](Cn1cnc2c(N)ncnc21)OCP(=O)(O)O | >500 µM
CN1CC=C(CC2(Cc3ccccc3)C(=O)N(c3ccccc3)c3ccccc32)CC1 | 61 µM

CCn is the concentration with n% toxicity to the cells. a–b is a range or a potency band.